Results of single-concentration screens

The filed quantity is “Percent Effect” (%). The controls that fix the scale are not given in the record; negative values are as filed. This is part of a subset picked to be rich in strong results. Two or more numbers in one place are separate tests of the same structure; such repeats can differ widely. A dash means the value is not listed here; it may have been measured.

Mtb glucose medium: 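Growth of Mycobacterium tuberculosis over 3 days (7H9 medium with glucose and tyloxapol); the read-out is not stated. Compounds at 50 µM. Higher reads as more growth inhibition (inferred: compounds with an IC50 in retests scored well above the rest). Size under these conditions: about 69,000 compounds, about 760 of them at 50% or above in at least one test.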
Mtb cholesterol medium: 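Whole-cell growth test on Mycobacterium tuberculosis, read after 4 days in a medium based on cholesterol and the lipid DPPC; the read-out is not stated. Tested at 50 µM. Direction is inferred from retests: higher values go with more growth inhibition. About 69,000 compounds were tested under these conditions; 0.54% (about 370) showed 50% or more at least once.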

compound	Mtb glucose medium	Mtb cholesterol medium
CCNc1ccnc(N2Cc3cnc(CC(C)C)nc3C2)n1	23.02	-
COc1ccsc1C(=O)Nc1cc(Cl)c(=O)n(C)c1	-	2.818
CCOc1ccccc1-c1cc(N)[nH]n1.Cl	-7.896	3.151 and -11.97
OCC(CO)Nc1ccc2c(Cl)ccc(Cl)c2n1	63.05	-
CC(C)OCCN1CCN(C(=O)c2cccc(-n3cccn3)n2)CC1	1.47	10.89
CC(C)c1cc(N(C)Cc2noc(C3CCCC3)n2)n2nccc2n1	53.81	53.98
Cc1nn(C)c(Cl)c1C1CCCN1C(=O)c1ccc(N(C)C)nn1 (configuration not stated)	3.673 and -6.834	-
CCCn1ncc2c(C(=O)Nc3n[nH]c(SC)n3)cc(C3CC3)nc21	15.33	-
O=C(Cc1ccc2c(c1)CCC2)NC1CCN(Cc2ccccc2)CC1	10.53 and 0.3403	-13.43
Cc1nc(C2CCCN(C(=O)c3ccc(N4CCCC4)nc3)C2)no1 (configuration not stated)	13.6	-
CCc1ccc(-c2cc(C(F)(F)F)nc(N3CCC(N)CC3)n2)cc1	109.5 and 104.1	112.8
c1nc2c(c(N3CCOC(Cn4cncn4)C3)n1)CCC2 (configuration not stated)	-1.978 and 9.557	-
CSCC(=O)N(C)Cc1ccc(N(C)C)cc1	12.2	-
Cc1cc(S(=O)(=O)NC(C)(C)CN)c(F)cc1F.Cl	14.54	-
CC1(C)CN(C(=O)CC2CCC2)C[C@]1(C)O	50.29	-
CC(CNC(=O)c1cnccn1)Oc1ccc(F)cc1 (configuration not stated)	37.96	-
Cc1noc(C)c1CNC(=O)c1ccc(NC2CC2)nc1	11.87	-
COc1cccc(S(=O)(=O)NC(=O)C2CC(c3ccccc3)=NO2)c1 (configuration not stated)	-	2.38
CN1CCN(C(=O)C2CCCN(c3cccnn3)C2)CC1 (configuration not stated)	58.83	-
CC[C@H](C)[C@H](NC(=O)c1cccc(-n2cnnn2)c1)C(=O)OC	-0.3732	-9.001
CCNC(=O)N1CCC(=Cc2ccccc2)CC1	-1.807 and 18.96	12.64
CCn1nc(C)c2nc(C)nc(NCCc3ccccc3)c21	46.33 and 6.519	-
COc1ccc2c(c1)c(-c1nc(C)ncc1CN)cn2C	-1.111	-
Cc1nc(NC(=O)CCOCC(F)(F)F)ccc1Br	30.29	-
COc1cccc(-c2ccc(CNC(=O)c3ccc(=O)n(C)c3)cc2)c1	-	13.53
CC(=O)Nc1nc(C(=O)NCc2ccnc(N3CCCC3)c2)cs1	-15.77	-20.38
O=C(O)c1ccccc1-c1ccc(CN2CCOCC2)cn1	-	12.97
CCc1cc(CNC(=O)c2cc(NC(=O)C(C)C)ccc2Cl)[nH]n1	3.125 and -17.45	-0.08969
O=C(NCCn1cccc1)c1c(O)cc(F)cc1F	8.327	28.37
O=C(c1cc(Cl)c(Br)[nH]1)N1CCN(Cc2ccco2)CC1	-19.27	-16.93
c1ccc2c(c1)CCN(c1ncnc3sc4c(c13)CCNC4)C2	37.62	18.87
CN(Cc1ccco1)C(=O)C1CCCc2ccccc21 (configuration not stated)	10.33	-1.552
O=C(COCc1ccccc1)Nc1ccccn1	-	18.46
Cc1cnc(CNC(=O)C2CCOc3ccccc3C2)cn1 (configuration not stated)	-	-4.583
Cc1noc(C)c1NC(=O)CCn1cc(Br)ccc1=O	-27.24 and 7.046	-
CC(NCCn1c(=O)oc2ccccc21)c1ccccn1 (configuration not stated)	-	-25.19
CC(Cn1cccn1)NCc1csc(-c2ccccc2)n1 (configuration not stated)	39.45	-
OCc1ccc(-c2c(-c3ccccc3)ncn2CCN2CCOCC2)o1	-16.64	-
COC(=O)CSc1nnc(CCNC(=O)OC(C)(C)C)o1	-7.419	-7.349
Cc1cccc(CS(=O)(=O)NCC(O)Cc2ccccc2)c1 (configuration not stated)	13.95 and 6.852	-
Cc1ccc(C)c(-n2cc(CN3CCOCC3)c(-c3ccccc3)n2)c1	6.312	-
CC(C)(C)CCS(=O)(=O)NCCc1csc(N2CCCC2)n1	-6.695	-
CC1(C)CN(Cc2nnc(-c3cccnc3)o2)CC[C@]1(C)O	6.085	-
CCCc1ccc2oc(C(=O)N3CCN(CCOC)CC3)c(C)c2c1	66.74	63.66
[H][C@]12CC[C@]([H])(CN(Cc3[nH]cnc3C)C1)N(Cc1ccc(C)o1)C2	4.358 and -34.75	-
O=C(CC(SC1CCCCC1)C(=O)O)c1ccc(Br)cc1 (configuration not stated)	16.71 and -11.52	-
Cc1ccc(CNC(CN2CCN(C)CC2)c2ccccc2)cc1 (configuration not stated)	29.58	-
COc1ccc2c(c1)CN(c1cc(N3CCCC3CO)ncn1)CC2 (configuration not stated)	55.04	-
CCN(C)C(=O)Nc1cc(F)c(OC)cc1F	-52.14	-11.39
COc1cccc(CNC(=O)NC2(c3nc(C)no3)CCCCC2)c1	-2.517 and 2.558	-
CCc1cnccc1C(=O)Nc1ccc(C(N)=O)nc1	-18.06	9.723
CN(CCCNS(=O)(=O)N1CCC2(CC1)OCCO2)c1ccccc1	-18.1	-32.43 and 8.215
O=C(NCc1ccco1)Nc1cccc(S(=O)(=O)C(F)F)c1	2.705	2.751
O=C(C1CC1)N(Cc1ccc2cc[nH]c2c1)C1CC1	8.002	-
CCOCCN(C)C(c1cccnc1)c1ccc(F)cc1F (configuration not stated)	-	90.94 and 1.96
CC(C)n1ccnc1C1CCN(Cc2ccc(Cl)c(F)c2)CC1	2.397	-
O=C(O)C(F)(F)F.[H][C@@]12CN(Cc3ccco3)C[C@]1([H])C(=O)N(c1cncnc1)C2	15.45 and 3.598	-
Cc1nnc(CN(Cc2ccccc2Cl)C2CCCC2)o1	6.398 and -1.246	-
CN(Cc1c(F)cccc1Cl)C(=O)CN(C)C1CCc2ccccc21 (configuration not stated)	-0.1692	10.17
COc1cccc(CNc2cc(C)nc(-c3ccncc3)n2)c1O	36.02	-
O=C(c1cc2c([nH]c1=O)CCC2)N1CCCC1c1cccnc1 (configuration not stated)	-	-9.177
CNS(=O)(=O)c1ccc(CNC(=O)C2CCCO2)cc1 (configuration not stated)	-8.709	-25.58
O=C(O)C(F)(F)F.[H][C@@]12CO[C@H](CNS(C)(=O)=O)[C@]1([H])CCN(CCc1ccccc1)C2	-	0.7518
CCN(Cc1cc(F)c(OC)c(Cl)c1)Cc1noc(CC(C)C)n1	59.58	-

The last 4 entries again:

| compound | Mtb glucose medium | Mtb cholesterol medium |
|---|---|---|
| `O=C(c1cc2c([nH]c1=O)CCC2)N1CCCC1c1cccnc1` (configuration not stated) | - | -9.177 |
| `CNS(=O)(=O)c1ccc(CNC(=O)C2CCCO2)cc1` (configuration not stated) | -8.709 | -25.58 |
| `O=C(O)C(F)(F)F.[H][C@@]12CO[C@H](CNS(C)(=O)=O)[C@]1([H])CCN(CCc1ccccc1)C2` | - | 0.7518 |
| `CCN(Cc1cc(F)c(OC)c(Cl)c1)Cc1noc(CC(C)C)n1` | 59.58 | - |

The values are deposited in ChEMBL (CHEMBL3988442, “University of Dundee, Small-Polar-MMV Screening Library” (2021)).